# Sequence variants of PSTVd stem 3 after infection

Region: stem 3 of PSTVd (intermediate strain), upper and lower strand joined, each 5' to 3', the first 8 letters being the upper strand. Wild type: GUGGUUCCGGAACCGC. Varied positions (N): GUGGUUCCGNANNCNN.

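Three N. benthamiana plants were inoculated with the whole mutant pool. Samples came from the inoculated region at 5 days, the leaf margin at 10 and upper systemic leaves at 12.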

Numbers give reads per thousand; 0 = not seen among the reads, higher = more abundant. Each site shows the three plants. "Pool" is the share in the plasmid pool used as inoculum, on the same scale. The inoculated region was read from the minus strand, the other sites from the plus strand. With 27,691-54,225 reads a sample, very low values are single reads. For reference, wild type rose from 17.3 per thousand in the pool to 330, 345, 235 (inoculated region), 794, 766, 816 (leaf margin) and 830, 792, 869 (systemic leaves). Sequences that differ at fixed positions probably stem from PCR or sequencing errors, and defective variants can be carried along by functional ones.

| # | sequence | pool | inoculated region | leaf margin | systemic leaves |
|---|---|---|---|---|---|
| 1 | GUGGUUCCGUAUGCGC | 1.35 | 0.560 / 0.668 / 0.730 | 0 / 0.0636 / 0 | 0.0746 / 0 / 0 |
| 2 | GUGGUUCCGUAUGCCC | 0.693 | 0.426 / 0.280 / 0.324 | 0 / 0.0318 / 0.0361 | 0 / 0 / 0 |
| 3 | GUGGUUCCUGAACAGC | 0.0154 | 0.0267 / 0 / 0 | 0 / 0.0318 / 0.0722 | 0.0186 / 0.0184 / 0 |
| 4 | GUGGUUCCGACCAGGA | 0.0308 | 0 / 0 / 0 | 0 / 0 / 0 | 0 / 0 / 0 |
| 5 | GUGGUUCCGGACCCAA | 0.708 | 0.347 / 0.259 / 0.405 | 0 / 0.0318 / 0 | 0 / 0 / 0 |
| 6 | GUGGUUCCGCAUACAA | 0.816 | 0.293 / 0.345 / 0.378 | 0.0283 / 0.0318 / 0 | 0 / 0 / 0 |
| 7 | GUGGGUCCGAACACCG | 0.0308 | 0 / 0 / 0 | 0 / 0 / 0 | 0 / 0 / 0 |
| 8 | GUGGUUCAGCACGCGG | 0.0154 | 0 / 0 / 0 | 0 / 0 / 0 | 0 / 0 / 0 |
| 9 | GAGGUUCCGCAAUCAU | 0.0154 | 0 / 0 / 0 | 0 / 0 / 0 | 0 / 0 / 0 |
| 10 | GUGGUUCCGUACUCUG | 0.769 | 0.347 / 0.431 / 0.405 | 0 / 0.0318 / 0.0361 | 0 / 0 / 0 |
| 11 | GUGGUUCCGCAUCCCA | 0.985 | 0.213 / 0.323 / 0.162 | 0.0283 / 0.0318 / 0 | 0 / 0 / 0 |
| 12 | GUGGUUCCGCAUGCGC | 0.985 | 0.400 / 0.108 / 0.270 | 0 / 0 / 0.0722 | 0 / 0 / 0 |
| 13 | GUGGUUCCGGAACCGG | 0.908 | 0.693 / 0.367 / 0.676 | 0.368 / 0.286 / 0.217 | 0.391 / 0.314 / 0.486 |
| 14 | GUGGUUCCGAAUUCCG | 0.662 | 0.533 / 0.647 / 1.19 | 0 / 0 / 0.542 | 0 / 0 / 0 |
| 15 | GUGGGUCCGUAUUCUU | 0.0154 | 0.0267 / 0 / 0 | 0 / 0 / 0 | 0 / 0 / 0 |
| 16 | GUGGUUCCGGAUGCGC | 1.40 | 0.293 / 0.690 / 0.594 | 0 / 0.0318 / 0 | 0.0373 / 0 / 0 |
| 17 | GUGGUUCCGGACACCU | 0.769 | 0.240 / 0.302 / 0.405 | 0 / 0 / 0 | 0 / 0 / 0 |
| 18 | GUGGUUCCGCAGCCUA | 0.769 | 0.373 / 0.367 / 0.324 | 0 / 0.0318 / 0 | 0 / 0 / 0 |
| 19 | GUGGUUCCGCAAACAG | 0.693 | 0.213 / 0.302 / 0.216 | 0.0283 / 0 / 0 | 0 / 0 / 0 |
| 20 | GUGGUUCCGUAAACGC | 0.785 | 0.400 / 0.410 / 0.216 | 0 / 0 / 0 | 0.0186 / 0 / 0 |
| 21 | GUGGUUCCGCAUGCUU | 0.631 | 0.187 / 0.431 / 0.216 | 0 / 0.0636 / 0 | 0 / 0 / 0 |
| 22 | GUGGUUCCGCACCCUU | 0.877 | 0.187 / 0.280 / 0.0811 | 0 / 0.0318 / 0 | 0 / 0 / 0 |
| 23 | GUGGUUCCGUAUACUA | 1.00 | 0.506 / 0.259 / 0.216 | 0 / 0 / 0.0722 | 0 / 0 / 0 |
| 24 | AUGGUUCCGGAAUCGU | 0.0308 | 0 / 0 / 0 | 0 / 0 / 0 | 0 / 0 / 0 |
| 25 | GUGGUUCCGUAGACUU | 1.00 | 0.933 / 0.798 / 0.892 | 0 / 1.30 / 0.542 | 0 / 0 / 0 |
| 26 | GUGGUUCCGCAACCAG | 0.954 | 0.267 / 0.237 / 0.297 | 0 / 0.0636 / 0 | 0 / 0 / 0 |
| 27 | GUGGUUCCGGACGCAC | 0.862 | 0.480 / 0.496 / 0.351 | 0 / 0 / 0.0722 | 0 / 0 / 0 |
| 28 | GUGGUUCCGGAAGCCA | 0.862 | 0.320 / 0.453 / 0.297 | 0.0283 / 0 / 0.0361 | 0 / 0 / 0 |
| 29 | GUGGUUCCGCAUCCCG | 1.00 | 0.320 / 0.280 / 0.189 | 0 / 0 / 0.0361 | 0 / 0 / 0 |
| 30 | GUGGUUCCGUAACCGU | 0.877 | 0.267 / 0.410 / 0.432 | 0 / 0.0318 / 0 | 0 / 0 / 0 |
| 31 | GUGGUUCCGGACACCG | 0.908 | 0.213 / 0.194 / 0.270 | 0 / 0 / 0 | 0 / 0 / 0 |
| 32 | GUGGUUCCGAAAUCGU | 0.923 | 0.826 / 0.539 / 0.865 | 0 / 0.859 / 0.217 | 0 / 0 / 0 |
| 33 | GUGGUUCCGGAAGCAU | 0.816 | 1.09 / 0.647 / 0.486 | 0 / 0.0318 / 0.217 | 0 / 0 / 0 |
| 34 | GUGGUUCCGGACUCGG | 1.00 | 0.426 / 0.302 / 0.270 | 0.0567 / 0 / 0.0361 | 0 / 0 / 0 |
| 35 | GUGGUUCCGAAUGCAU | 0.893 | 0.906 / 0.819 / 0.892 | 0.0283 / 1.02 / 0.506 | 0 / 0 / 0 |
| 36 | GUGGUUCCGCAUUCCA | 0.769 | 0.400 / 0.280 / 0.351 | 0 / 0.0636 / 0 | 0 / 0 / 0 |
| 37 | GUGGUUCCGGAGGCUC | 0.677 | 0.320 / 0.259 / 0.297 | 0 / 0.0318 / 0 | 0 / 0 / 0 |
| 38 | GUGGUUCCGCACACUA | 1.05 | 0.293 / 0.367 / 0.189 | 0 / 0 / 0 | 0 / 0 / 0 |
| 39 | GUGGUUCCGUAACCAU | 0.800 | 1.01 / 0.712 / 1.11 | 0 / 0 / 0.433 | 0 / 0 / 0 |
| 40 | GUGGUUCCGGAGUCCG | 0.862 | 0.560 / 0.733 / 1.03 | 0 / 0 / 0 | 0 / 0 / 0 |
| 41 | GUGGUUCCGGACCCCA | 0.708 | 0.453 / 0.410 / 0.270 | 0 / 0 / 0 | 0 / 0 / 0 |
| 42 | GUGGUUCCGGAUUCCA | 0.908 | 0.267 / 0.367 / 0.270 | 0.0283 / 0 / 0 | 0 / 0 / 0 |
| 43 | GUGGUUCCGGAAACGU | 1.43 | 0.666 / 0.474 / 0.297 | 0 / 0 / 1.05 | 0.0932 / 0.0184 / 0.0243 |
| 44 | GUGGUUCCGUAGACUG | 0.877 | 0.293 / 0.345 / 0.189 | 0 / 0 / 0 | 0 / 0 / 0 |
| 45 | GUGGUUCCGUAACCUU | 0.646 | 0.426 / 0.173 / 0.270 | 0.0283 / 0 / 0 | 0 / 0 / 0 |
| 46 | GUGGUUCCGGAACCUG | 0.893 | 0.347 / 0.496 / 0.162 | 0.0283 / 0 / 0 | 0.0186 / 0.0184 / 0 |
| 47 | GUGGUUCCGGAGACCG | 0.816 | 0.347 / 0.173 / 0.270 | 0 / 0 / 0 | 0 / 0 / 0 |
| 48 | GUGGUUCCGGAACCAG | 0.816 | 0.426 / 0.561 / 0.405 | 0 / 0.0318 / 0 | 0 / 0 / 0 |
| 49 | GUGGUUCCGAAAACUA | 0.616 | 0.373 / 0.410 / 0.243 | 0 / 0 / 0 | 0 / 0 / 0 |
| 50 | GUGGUUCCGAAUACAC | 1.00 | 0.720 / 0.798 / 1.05 | 0 / 0.923 / 0.325 | 0.0186 / 0 / 0 |
| 51 | GUGGUUCCGAAGGCGA | 0.831 | 0.560 / 0.798 / 0.676 | 0.0283 / 0.0318 / 0.0361 | 0 / 0 / 0 |
| 52 | GUGGUUCCGGAGUCGC | 0.862 | 0.826 / 0.539 / 0.730 | 0.0567 / 0.0318 / 0 | 0 / 0 / 0 |
| 53 | GUGGUUCCGGAACCAA | 0.693 | 0.320 / 0.453 / 0.297 | 0 / 0 / 0 | 0 / 0 / 0 |
| 54 | GUGGGUCCGCAUCCCG | 0.0154 | 0 / 0 / 0 | 0 / 0 / 0 | 0 / 0 / 0 |
| 55 | GUCGUUCCGAACGCCC | 0.0154 | 0 / 0 / 0 | 0 / 0 / 0 | 0 / 0 / 0 |
| 56 | GUGGUUCCGCAGGCUA | 1.23 | 0.720 / 0.690 / 0.459 | 0 / 0 / 0 | 0 / 0 / 0 |
| 57 | GUGGUUCCGAACACCC | 1.06 | 0.320 / 0.345 / 0.189 | 0 / 0.0318 / 0.0361 | 0 / 0 / 0 |
| 58 | GUGGUUCCGCACGCUG | 0.785 | 0.373 / 0.388 / 0.270 | 0 / 0 / 0 | 0 / 0 / 0 |

Excerpt, the final 6 entries:

sequence	pool	inoculated region	leaf margin	systemic leaves
GUGGUUCCGGAACCAA	0.693	0.320 / 0.453 / 0.297	0 / 0 / 0	0 / 0 / 0
GUGGGUCCGCAUCCCG	0.0154	0 / 0 / 0	0 / 0 / 0	0 / 0 / 0
GUCGUUCCGAACGCCC	0.0154	0 / 0 / 0	0 / 0 / 0	0 / 0 / 0
GUGGUUCCGCAGGCUA	1.23	0.720 / 0.690 / 0.459	0 / 0 / 0	0 / 0 / 0
GUGGUUCCGAACACCC	1.06	0.320 / 0.345 / 0.189	0 / 0.0318 / 0.0361	0 / 0 / 0
GUGGUUCCGCACGCUG	0.785	0.373 / 0.388 / 0.270	0 / 0 / 0	0 / 0 / 0

From the data files of Wu et al. 2024, doi:10.1371/journal.ppat.1012142.